Laboratory results: patent publication US10207993B2 (priority 2014, dated 2019)

System: H37Rv
Assay: Inhibition of Mycobacterium colony growth in THP1 macrophages (CFU counts)
Format: cell-based, M. tuberculosis
Conditions: PMA-differentiated THP-1, MOI 10, CFU at 90 hr

SMILES: CC(O)(C(=O)OC1CN(Cc2ccccc2)C1)c1ccccc1 (stereo not shown)
- H37Rv % Inhibition at 500 nM: 78%
